Measured values from several laboratories, pooled; numbers as filed in NIAID ChemDB.

Shared fields: growth or infection tests; organism: Mycobacterium tuberculosis

Neighbouring rows are from separate reports. Inhibition is in % at the dose shown (toxicity tests: loss of growth or viability). Two numbers with a dash give a range or band. MIC bound comes from a single tested concentration. ECn is the concentration giving n% inhibition of infection, replication or growth. An empty or dashed field is not shown.

structure,strain,mutations,read-out,dose,method,result
O=C1c2cc(Cl)nnc2Oc2ccccc2N1Cc1ccccc1,H37Rv,-,EC50,-,BACTEC,>12.5 µg/mL
CCOC(=O)c1c(C)c(-c2ccccc2)n(CC(=O)N/N=C/c2ccc[nH]2)c1C,H37Rv,-,EC50,-,BACTEC,>6.25 µg/mL
CCCCCCCCO[C@H]1O[C@H](CO[C@@H]2[C@@H](OCCCCCCCC)O[C@H](CO)[C@H]2OC)[C@@H](O[C@@H]2O[C@H](O)[C@@H](OC)[C@@H]2O)[C@@H]1O,H37Rv,-,inhibition,6.25 µg/mL,-,20%
O=C(NN1C(=O)CSC1=S)c1ccc([N+](=O)[O-])cc1,H37Rv,-,MIC bound,-,BACTEC,>12.5 µg/mL
COc1ccc(Nc2nnc(-c3ccc(NC(=S)Nc4ccccc4)cc3)s2)cc1,H37Rv,-,MIC,-,-,>6.25 µg/mL
Clc1ccc(-c2nnc(CON=C(c3ccccc3)c3ccccc3)o2)cc1,-,-,inhibition,12.5 µg/mL,-,7–56%
Clc1ccc(CNCc2c[nH]c3ccc(Br)cc23)cc1,H37Ra,-,MIC,-,-,8 µg/mL
CC(=O)Nc1c(C)c2ccccc2[nH]c1=O,H37Rv,-,MIC,-,-,>6.25 µg/mL
CCCCCCCCO[C@H]1O[C@H](CO[C@H]2O[C@H](CO)[C@@H](N=[N+]=[N-])[C@@H]2O)[C@@H](O)[C@@H]1O,H37Rv,-,EC50,-,-,>6.25 µg/mL
CCOC(=O)c1c(C)c(-c2ccccc2)n(CC(=O)N/N=C/c2cn(C(C)=O)c3ccccc23)c1C,H37Rv,-,EC50,-,BACTEC,>6.25 µg/mL
O=C(NNS(=O)(=O)c1ccccc1)c1ccc([N+](=O)[O-])cc1,H37Rv,-,inhibition,12.5 µg/mL,BACTEC,-4%
Oc1cc(Cl)ccc1Oc1ccc(Cl)cc1Cl,Clinical isolate,INH resistant,MIC,-,resazurin,>12.5 µg/mL
Cc1cc2c(cc1C)[n+]([O-])c(-c1nc3ccccc3s1)c(N)[n+]2[O-],H37Rv,-,MIC bound,-,BACTEC,≤12.5 µg/mL
COc1ccc2cc1-c1cc(ccc1O)C[C@H]1c3cc4c(cc3CCN1C)Oc1c(OC)cc3c(c1O4)[C@H](C2)N(C)CC3,H37Rv-PAS-R ATCC 35821,-,MIC,-,resazurin,3.1 µg/mL
Cc1nc2c(-c3ccccc3)c3cc(Cl)ccc3nc2o1,H37Rv,-,MIC,-,-,>6.25 µg/mL
COc1c2ccoc2cc2oc(COC3OC(CO)C(O)C(O)C3O)cc(=O)c12,H37Rv,-,MIC,-,BACTEC,≥12.8 µg/mL
Cc1ccc(CCC(O)c2ccc(Oc3ccccc3)c(O)c2)cc1,Clinical isolate,MDR,MIC,-,resazurin,3.125 µg/mL
CCCCCCCCCCC[C@@H]1CCC[C@@H](C)N1,H37Rv,-,MIC,-,-,6.4 µg/mL
Cc1cc(C)c(C(=O)N/N=C/c2ccc([N+](=O)[O-])o2)[nH]1,H37Rv,-,inhibition,6.25 µg/mL,BACTEC,26%
CO[C@H]1/C=C/O[C@@]2(C)Oc3c(C)c(O)c4c(O)c(c(/C=N/N5CCN(C6CCCC6)CC5)c(O)c4c3C2=O)NC(=O)/C(C)=C\C=C\[C@H](C)[C@H](O)[C@@H](C)[C@@H](O)[C@@H](C)[C@H](OC(C)=O)[C@@H]1C,H37Rv,-,MIC,-,-,0.015 µg/mL
CCCCCCCCN1C(=O)c2cc(Cl)nnc2Oc2ccc3ccccc3c21,H37Rv,-,inhibition,12.5 µg/mL,BACTEC,38%
CC(=O)Oc1c(OC(C)=O)c(-c2ccc(O)c(O)c2)c(O)c(O)c1-c1ccc(O)cc1,H37Rv,-,MIC bound,-,BACTEC,>12.5 µg/mL
CCCCCCCCN1C(=O)c2cc(Cl)nnc2Oc2ccc(Cl)cc21,H37Rv,-,EC50,-,BACTEC,12.5 µg/mL
CCN(CCNc1ccc(CO)c2sc3ccccc3c(=O)c12)CC(C)(C)O,H37Rv,-,MIC bound,-,BACTEC,>12.5 µg/mL
O=C1C(=S)N(Cc2ccccc2)c2ccccc21,CNCTC TBC1/47,-,MIC,-,-,63 µM
COc1cccc2c1C(=O)c1c(O)c3c(c(O)c1C2=O)C[C@@](O)(/C(C)=N/NC(=O)c1ccc(Cl)c(Cl)c1)C[C@H]3O[C@H]1C[C@H](N)[C@H](O)[C@H](C)O1,RMP-R,-,MIC,-,-,>12.5 µg/mL
Cc1c(C(C[N+](=O)[O-])C[N+](=O)[O-])c2ccccc2n1C,H37Ra,-,MIC,-,-,>64 µg/mL
Oc1cc(C(O)CCc2ccc(F)cc2)ccc1Oc1ccccc1,Clinical isolate,MDR,MIC,-,resazurin,>12.5 µg/mL
CCn1c(S)c(N=NC(N)=O)c2ccccc21,CNCTC TBC1/47,-,MIC,-,-,125 µM
CCn1c(O)c(N=NC(=N)SCC(C)C)c2ccccc21,H37Rv,-,MIC,-,BACTEC,≥12.8 µg/mL
c1ccc(OCc2nnc(CON=C(c3ccccc3)c3ccccc3)o2)cc1,-,-,inhibition,12.5 µg/mL,-,7–56%
O=C(Nc1ccccc1-c1nn(C(=S)Nc2ccccc2)c(=S)n(C(=S)Nc2ccccc2)c1=O)C(F)(F)F,H37Rv,-,MIC bound,-,BACTEC,≤12.5 µg/mL
Oc1cc(C(O)CCc2ccccc2)ccc1Oc1ccccc1,Clinical isolate,INH resistant,MIC,-,resazurin,6.25 µg/mL
Fc1ccc(CNCc2c[nH]c3ccccc23)c(F)c1,H37Ra,-,MIC,-,-,64 µg/mL
Cn1c(=O)c(N)c(-c2ccccc2)c2cc(Cl)ccc21,H37Rv,-,MIC,-,-,>6.25 µg/mL
C(=C\c1nnc(CCON=C(c2ccccc2)c2ccccc2)o1)/c1ccccc1,-,-,inhibition,12.5 µg/mL,-,7–56%
COc1ccc2cc1-c1cc(ccc1O)C[C@H]1c3cc4c(cc3CCN1C)Oc1c(OC)cc3c(c1O4)[C@@H](C2)N(C)CC3,H37Ra,-,MIC,-,resazurin,3.1 µg/mL
COC1OC2COC(c3ccccc3)OC2C(NC(=S)SCc2ccccc2)C1O,H37Rv,-,MIC bound,-,resazurin,>6.25 µg/mL
COc1ccc(CCC(O)c2ccc(Oc3ccccc3)c(O)c2)cc1,Clinical isolate,MDR,MIC,-,resazurin,3.125 µg/mL
Cc1nc2c(C)cccn2c1C(=O)NNC(=S)Nc1ccc(Cl)cc1,H37Rv,-,MIC,-,-,>12.5 µM
C/C(=N\OCCc1nnc(Nc2ccc(Br)cc2)o1)c1ccccc1,-,-,inhibition,12.5 µg/mL,-,7–56%
NC(=O)C1=C[C@H]2[C@H]3C=C[C@@]2(O)C(=O)O[C@@H]3O1,KM-R,-,MIC,-,-,6.3 µg/mL
Fc1ccc(Nc2nnc(-c3ccc(NC(=S)Nc4ccccc4)cc3)s2)cc1,H37Rv,-,EC50,-,-,>6.25 µg/mL
NCc1c[nH]c2ccccc12,H37Ra,-,MIC,-,-,256 µg/mL
CCCCCCCN1C(=O)c2cc(Cl)nnc2Oc2cc(C)ccc21,H37Rv,-,inhibition,12.5 µg/mL,BACTEC,78%
CC(=O)OC1CC2C(C)(CCC3C2(C)CCC2(C)C4CC(C)(C)CCC4(C)CCC32C)C1C,H37Rv,-,MIC bound,-,BACTEC,>12.5 µg/mL
Clc1cccc(CNCCc2c[nH]c3ccccc23)c1,H37Ra,-,MIC,-,-,32 µg/mL
O=C1CCCCCCCCCCOCCCCO1,H37Rv,-,inhibition,12.5 µg/mL,BACTEC,5%
Cc1cc(O)c2c(c1)C(=O)C(c1c(C)cc3c(c1O)C(=O)C=CC3=O)=CC2=O,H37Rv,-,MIC,-,-,0.1 µg/mL
O=C1c2cc(Cl)nnc2Oc2ccc3ccccc3c2N1CC1CCCCC1,H37Rv,-,inhibition,12.5 µg/mL,BACTEC,37%
Cc1nc2c(C)cccn2c1C(=O)NNC(=S)Nc1ccc(F)cc1,H37Rv,-,MIC,-,-,>12.5 µM
C/C(=N\OCc1n[nH]c(=S)o1)c1ccccc1,-,-,inhibition,12.5 µg/mL,-,7–56%
COc1cccc(/C=c2\[nH]c(=O)/c(=C\c3cccc(OC)c3OC)[nH]c2=O)c1OC,H37Rv,-,MIC,-,BACTEC,≥12.5 µg/mL
CCn1cc(C(=O)N=Nc2c(O)[nH]c3ccccc23)c(=O)c2ccc(C)nc21,-,-,MIC,-,-,100 µg/mL
NNC(=O)c1ccncc1,H37Rv,-,MIC,-,resazurin,0.125 µg/mL
CCn1c(-c2ccccc2)c(C(C[N+](=O)[O-])C[N+](=O)[O-])c2ccccc21,H37Ra,-,MIC,-,-,128 µg/mL
C/C(=N\OCCc1nnc(COc2ccccc2)o1)c1ccccc1,-,-,inhibition,12.5 µg/mL,-,7–56%
S=C(Nc1ccccc1)Nc1ccc(-c2nnc(Nc3ccc(Cl)cc3)s2)cc1,H37Rv,-,inhibition,6.25 µg/mL,-,32%
O=C1C(=S)N(c2ccccc2)c2ccccc21,CNCTC TBC1/47,-,MIC,-,-,16 µM
Cc1ccccc1Nc1nnc(-c2ccc(NC(=S)Nc3ccccc3)cc2)s1,H37Rv,-,inhibition,6.25 µg/mL,-,3%
CCCCCN1C(=S)C(=O)c2ccccc21,CNCTC TBC1/47,-,MIC,-,-,16 µM
Cc1ccc(-c2nnc(CON=C(c3ccccc3)c3ccccc3)o2)cc1,-,-,inhibition,12.5 µg/mL,-,7–56%
c1ccc(CNCc2c[nH]c3ccccc23)cc1,H37Ra,-,MIC,-,-,32 µg/mL
C/C(=N\OCCc1nnc(/C=C/c2ccccc2)o1)c1ccccc1,-,-,inhibition,12.5 µg/mL,-,7–56%
CCOC(=O)c1cc(-c2ccc(Cl)cc2)n(CC(=O)NN)c1C,H37Rv,-,inhibition,6.25 µg/mL,BACTEC,10%
CCCCCCCCO[C@H]1O[C@H](CO[C@@H]2[C@@H](OCCCCCCCC)O[C@H](CO)[C@H]2N)[C@@H](O[C@@H]2O[C@H](O)[C@@H](N)[C@@H]2O)[C@@H]1O,H37Rv,-,inhibition,6.25 µg/mL,-,12%
Oc1cc(C(O)CCc2ccco2)ccc1Oc1ccccc1,Clinical isolate,INH resistant,MIC,-,resazurin,12.5 µg/mL
CCn1cc(C(=O)N=Nc2c(O)n(CC)c3ccc(Br)cc23)c(=O)c2ccc(C)nc21,-,-,MIC,-,-,100 µg/mL
CCOC(=O)c1c(C)c(-c2ccccc2)n(CC(=O)N/N=C/c2ccc([N+](=O)[O-])o2)c1C,H37Rv,-,inhibition,6.25 µg/mL,BACTEC,31%
COc1ccc(N=Nc2c(-c3cccs3)nn(C(=S)SC)c2C(F)(F)F)cc1,H37Rv,-,inhibition,128 µg/mL,BACTEC,100%
Cc1c(-[n+]2ccccc2)c(=O)[nH]c2ccccc12,H37Rv,-,inhibition,6.25 µg/mL,-,0%
CCOC(=O)c1[nH]c(/C=N/NC(=O)c2c(C)c[nH]c2C)c(C(=O)OCC)c1C,H37Rv,-,inhibition,6.25 µg/mL,BACTEC,68%
COc1ccc2sc3c(C)ccc(NCC4CCCN5CCCCC45)c3c(=O)c2c1,H37Rv,-,MIC bound,-,BACTEC,≤12.5 µg/mL
COc1ccc(-c2nnc(CCO/N=C(\C)c3ccccc3)o2)cc1,-,-,inhibition,12.5 µg/mL,-,7–56%
Fc1ccc(CNCCc2c[nH]c3ccccc23)c(F)c1,H37Ra,-,MIC,-,-,64 µg/mL
O=C1CSC(c2ccccc2Cl)N1c1n[nH]c(=S)s1,H37Rv,-,inhibition,12.5 µg/mL,BACTEC,-8%
CCOC(=O)c1cc(-c2ccc([N+](=O)[O-])cc2)n(CC(=O)N/N=C/c2ccc(O)c(OCC)c2)c1C,H37Rv,-,inhibition,6.25 µg/mL,BACTEC,0%
CCCCCCCCO[C@H]1O[C@H](CO)[C@@H](O[C@H]2O[C@H](CO)[C@@H](N)[C@@H]2O)[C@@H]1O,H37Rv,-,EC50,-,-,>6.25 µg/mL
CC(=O)Nc1c(OC(C)=O)nc2ccc(Cl)cc2c1-c1ccccc1,H37Rv,-,inhibition,6.25 µg/mL,-,0%
CCCCNC(=S)N[C@@H]1O[C@H](CO)[C@@H](O)[C@H](O)[C@H]1O,H37Rv,-,inhibition,6.25 µg/mL,resazurin,25%
CCCCCN1C(=O)c2cc(Cl)nnc2Oc2ccccc21,H37Rv,-,inhibition,12.5 µg/mL,BACTEC,32%
O=C1/C(=N/O)CC(c2ccccc2)N1Br,H37Rv,-,MIC bound,-,BACTEC,>12.8 µg/mL
CCn1cc(C(=O)N=Nc2c(O)[nH]c3ccc(Br)cc23)c(=O)c2ccc(C)nc21,-,-,MIC,-,-,200 µg/mL
CC(=O)Nc1c(OC(C)=O)nc2ccc([N+](=O)[O-])cc2c1-c1ccccc1,H37Rv,-,MIC,-,-,>6.25 µg/mL
Clc1ccc(CNCCc2c[nH]c3ccccc23)cc1Cl,H37Ra,-,MIC,-,-,32 µg/mL

10 of the rows above, restated:

structure	strain	mutations	read-out	dose	method	result
CCn1cc(C(=O)N=Nc2c(O)n(CC)c3ccc(Br)cc23)c(=O)c2ccc(C)nc21	-	-	MIC	-	-	100 µg/mL
NNC(=O)c1ccncc1	H37Rv	-	MIC	-	resazurin	0.125 µg/mL
CCN(CCNc1ccc(CO)c2sc3ccccc3c(=O)c12)CC(C)(C)O	H37Rv	-	MIC bound	-	BACTEC	>12.5 µg/mL
O=C1/C(=N/O)CC(c2ccccc2)N1Br	H37Rv	-	MIC bound	-	BACTEC	>12.8 µg/mL
CCCCCCCCCCC[C@@H]1CCC[C@@H](C)N1	H37Rv	-	MIC	-	-	6.4 µg/mL
CCCCCN1C(=S)C(=O)c2ccccc21	CNCTC TBC1/47	-	MIC	-	-	16 µM
C/C(=N\OCCc1nnc(/C=C/c2ccccc2)o1)c1ccccc1	-	-	inhibition	12.5 µg/mL	-	7–56%
Cc1c(-[n+]2ccccc2)c(=O)[nH]c2ccccc12	H37Rv	-	inhibition	6.25 µg/mL	-	0%
CCn1c(S)c(N=NC(N)=O)c2ccccc21	CNCTC TBC1/47	-	MIC	-	-	125 µM
O=C1c2cc(Cl)nnc2Oc2ccc3ccccc3c2N1CC1CCCCC1	H37Rv	-	inhibition	12.5 µg/mL	BACTEC	37%